Positions that govern dimerization of the HIV-1 5' RNA

RNA: 5' end of the HIV-1 NL4-3 genome, made in vitro. Positions 1-437 read:
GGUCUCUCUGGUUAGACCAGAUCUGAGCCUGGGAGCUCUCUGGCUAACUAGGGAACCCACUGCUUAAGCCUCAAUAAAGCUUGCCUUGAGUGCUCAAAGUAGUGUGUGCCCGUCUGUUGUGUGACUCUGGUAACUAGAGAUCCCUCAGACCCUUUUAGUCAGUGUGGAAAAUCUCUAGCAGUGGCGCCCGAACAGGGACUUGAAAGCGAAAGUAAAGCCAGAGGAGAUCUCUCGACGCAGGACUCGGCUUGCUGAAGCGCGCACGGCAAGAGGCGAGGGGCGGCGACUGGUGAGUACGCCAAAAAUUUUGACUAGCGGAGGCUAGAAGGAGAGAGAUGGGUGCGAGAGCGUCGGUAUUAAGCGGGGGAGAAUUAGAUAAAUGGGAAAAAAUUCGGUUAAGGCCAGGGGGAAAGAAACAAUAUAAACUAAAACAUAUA

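Randomly mutated transcripts starting with one, two or three G (1G, 2G, 3G), capped or uncapped, were folded for 30 min at 37 °C. High salt was 300 mM KCl and 5 mM MgCl2, low salt 40 mM KCl and 0.1 mM MgCl2; monomer and dimer were parted on a native gel. Kdimer compares mutation frequencies in monomer and dimer, corrected for sequencing errors.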

Scale: median log2 Kdimer over the changes at a position; positive = changes inhibit dimerization, negative = changes enhance it.
One numbering serves 1G, 2G and 3G.
A position is written with its base.

- A319 (domain SL3): 3G capped low-salt 0.21; 3G uncapped low-salt 0.21
- G320 (domain SL3): 3G capped low-salt -0.21; 3G uncapped low-salt -0.12
- G321 (domain SL3): 3G capped low-salt 1.15; 3G uncapped low-salt 0.85
- C322 (domain SL3): 3G capped low-salt 0.70; 3G uncapped low-salt 0.75
- U323 (domain SL3): 3G capped low-salt -0.04; 3G uncapped low-salt 0.47
- A324 (domain SL3): 3G capped low-salt 0.79; 3G uncapped low-salt 0.80
- G325 (domain SL3): 3G capped low-salt 0.89; 3G uncapped low-salt 0.75
- A326: 3G capped low-salt -0.03; 3G uncapped low-salt -0.05
- A327: 3G capped low-salt 0.10; 3G uncapped low-salt 0.22
- G328: 3G capped low-salt -0.09; 3G uncapped low-salt -0.17
- G329: 3G capped low-salt 0.16; 3G uncapped low-salt 0.17
- A330: 3G capped low-salt 0.42; 3G uncapped low-salt 0.40
- G331: 3G capped low-salt 0.09; 3G uncapped low-salt 0.11
- A332: 3G capped low-salt 0.59; 3G uncapped low-salt 0.56
- G333 (domain AUG): 3G capped low-salt -0.19; 3G uncapped low-salt -0.28
- A334 (domain AUG): 3G capped low-salt 0.77; 3G uncapped low-salt 0.64
- G335 (domain AUG): 3G capped low-salt 0.85; 3G uncapped low-salt 1.11
- A336 (domain AUG): 3G capped low-salt 0.64; 3G uncapped low-salt 0.79
- U337 (domain AUG): 3G capped low-salt 0.06; 3G uncapped low-salt 0.97
- G338 (domain AUG): 3G capped low-salt 0.66; 3G uncapped low-salt 1.00
- G339 (domain AUG): 3G capped low-salt 0.95; 3G uncapped low-salt 1.01
- G340 (domain AUG): 3G capped low-salt 0.87; 3G uncapped low-salt 0.81
- U341 (domain AUG): 3G capped low-salt 0.65; 3G uncapped low-salt 0.90
- G342 (domain AUG): 3G capped low-salt 0.44; 3G uncapped low-salt 0.25
- C343 (domain AUG): 3G capped low-salt 0.59; 3G uncapped low-salt 0.62
- G344 (domain AUG): 3G capped low-salt -0.33; 3G uncapped low-salt -0.23
- A345: 3G capped low-salt 0.08; 3G uncapped low-salt 0.03
- G346: 3G capped low-salt 0.61; 3G uncapped low-salt 0.61
- A347: 3G capped low-salt 0.39; 3G uncapped low-salt 0.53
- G348: 3G capped low-salt 0.26; 3G uncapped low-salt 0.26
- C349: 3G capped low-salt 0.06; 3G uncapped low-salt 0.25
- G350: 3G capped low-salt 0.34; 3G uncapped low-salt 0.23
- U351: 3G capped low-salt 0.10; 3G uncapped low-salt 0.03
- C352: 3G capped low-salt -0.14; 3G uncapped low-salt -0.14
- G353: 3G capped low-salt 0.59; 3G uncapped low-salt 0.56
- G354: 3G capped low-salt -0.25; 3G uncapped low-salt -0.11
- U355: 3G capped low-salt 0.11; 3G uncapped low-salt -0.19
- A356: 3G capped low-salt -0.11; 3G uncapped low-salt -0.06
- U357: 3G capped low-salt -0.07; 3G uncapped low-salt -0.11
- U358: 3G capped low-salt -0.13; 3G uncapped low-salt -0.11
- A359: 3G capped low-salt -0.03; 3G uncapped low-salt 0.25
- A360: 3G capped low-salt 0.02; 3G uncapped low-salt 0.16
- G361: 3G capped low-salt 0.41; 3G uncapped low-salt 0.30
- C362: 3G capped low-salt 0.39; 3G uncapped low-salt 0.43
- G363: 3G capped low-salt 0.28; 3G uncapped low-salt 0.34
- G364: 3G capped low-salt 0.11; 3G uncapped low-salt 0.22
- G365: 3G capped low-salt 0.36; 3G uncapped low-salt 0.37

The opening 6 entries, copied out:

position,domain,3G capped low-salt,3G uncapped low-salt
A319,SL3,0.21,0.21
G320,SL3,-0.21,-0.12
G321,SL3,1.15,0.85
C322,SL3,0.70,0.75
U323,SL3,-0.04,0.47
A324,SL3,0.79,0.80

The measurements come from Ye et al. 2022 (doi:10.1038/s41594-022-00746-2).